Assay results as given in patent US20090221624A1, “4-AMINOQUINOLINE COMPOUNDS FOR TREATING VIRUS-RELATED CONDITIONS” (priority 2005, published 2009).

Legend:
DNG (D2-hRuPac cells) = experiment: DNG antiviral activity, D2-hRuPac cells, Renilla luciferase; format: cell-based, Dengue fever virus; settings: therapeutic index CC50/EC50, DNG
EBOV minigenome = format: cell-based, Ebola virus; settings: ratio CC50 / EC50
SINV (SR19-F-luc cells) = experiment: SINV antiviral activity, SR19-F-luc cells, Firefly luciferase; format: cell-based, Sindbis virus; settings: therapeutic index CC50/EC50, SINV

Compound | DNG TI (DNG (D2-hRuPac cells)) | EBOV TI (EBOV minigenome) | SINV TI (SINV (SR19-F-luc cells))
Cc1cc(Nc2cccc(Cl)c2C)c2cccc(C)c2n1 [Compound 65] | 1 | 1.54 | 1
CCOC(=O)c1cnc2ccc(F)cc2c1NCCCN(C)C [Compound 66] | 1.26 | 4.58 | 6.78
CCOC(=O)c1cnc2c(OC)cccc2c1NCC(C)O (stereo not drawn) [Compound 69] | 0.79 | 0.6 | 0.93
CCOC(=O)c1cnc2c(OC)cccc2c1NC(C)c1ccccc1 (stereo not drawn) [Compound 71] | 1.33 | 1.67 | 8.93
CCOC(=O)c1cnc2c(C(F)(F)F)cccc2c1Nc1ccc(S(=O)(=O)Nc2nc(C)cc(C)n2)cc1 [Compound 72] | 6.24 | 4.34 | 2.02
COC(=O)c1ccc2nc(C)cc(Nc3cccc(O)c3)c2c1 [Compound 73] | 4.31 | 0.96 | 12.08
CCOC(=O)c1cnc2ccc(F)cc2c1Nc1ccc(S(=O)(=O)Nc2nc(C)cc(C)n2)cc1 [Compound 74] | 18.38 | 1 | 1
CCOC(=O)c1cnc2c(C)cc(C)cc2c1NCCCN(C)C [Compound 75] | 3.84 | 3.27 | 2.13
COc1ccc2nc(C)cc(Nc3ccc(I)cc3)c2c1 [Compound 76] | 2.63 | 1.79 | 13.92
Cc1cc(NNC(=O)OCc2ccccc2)c2ccccc2n1 [Compound 78] | 0.9 | 0.68 | 6.78
COc1ccccc1Nc1cc(C)nc2c(C)c(C)cc(N)c12 [Compound 79] | 6.21 | 1.18 | 5.98
